Values of other authors as cited in patent publication US20230277682A1 (priority 2022, published 2023).

Columns and labels:
Details in all cases: literature; cited from earlier work
[1] = test system: Newcastle disease virus strain Miyadera (NDV)
arenavirus Junin (JUNV) = test system: arenavirus Junin (JUNV)
[2] = test system: vaccinia virus strain DII

Verrucarin A
significant antiviral activity: antiviral activity against Newcastle disease virus strain Miyadera (NDV) [1] | antiviral activity against arenavirus Junin (JUNV) (arenavirus Junin (JUNV)) | antiviral activity against vaccinia virus strain DII [2]
